Values from PubChem BioAssay AID1259414 (Drosophila RNAi Screening Center, 2018).
The screen tested about 24,000 reagents; this is an unselected part of those with a known target gene and a result. Over the whole deposit, about 1,210 (5%) were called active. 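Inactive calls also include excluded dsRNAs with several or no targets, genes unexpressed in JW18, and well A1, regardless of score.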 Unmarked entries are inactive. Names joined by + are all predicted targets of the reagent.

Aim: 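Fly genes that alter Wolbachia amount inside host cells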 (primary screen)
Cell system: Drosophila JW18 cells infected with Wolbachia
Reagents: long dsRNA against Drosophila genes, 0.25 µg dsRNA per well of a 384-well plate
Timing: 5 days
Treatment: cells persistently infected with Wolbachia before knock-down; no added drug
Measurement: 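Automated imaging of bacterial rRNA staining divided by host cell count, reported as plate-normalised robust z-score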
Direction: Wolbachia per cell robust z: higher = more Wolbachia per host cell than the plate typical
Rule for the call: 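Active if absolute robust z reaches 1.5 in two or more of three replicates, leaving out multi- or no-target dsRNAs, genes unexpressed in JW18 and A1 wells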

predicted target | amplicon | Wolbachia per cell robust z, rep 1 | Wolbachia per cell robust z, rep 2 | Wolbachia per cell robust z, rep 3
PGAP5 (Post-GPI attachment to proteins 5) | DRSC03089 | 0.484 | -0.293 | -1.27
PGAP5 (Post-GPI attachment to proteins 5) | DRSC27504 | 1.09 | -0.63 | -0.699
Cpr62Bb (Cuticular protein 62Bb) | DRSC08404 | -1.61 | 0.256 | -0.00493
Cpr62Bb (Cuticular protein 62Bb) | DRSC27624 | -2.6 | 0.434 | -0.688
CG9289 | DRSC03187 | 0.0456 | -2.64 | -1.48
CG9289 | DRSC28115 | -0.149 | -0.345 | -0.187
CG46385 | DRSC06557 | 0.93 | 0.0863 | -1.38
CG46385 | DRSC25794 | -1.14 | -0.723 | -0.883
TppII (Tripeptidyl-peptidase II) | DRSC07565 | 0.644 | -0.135 | 0.141
Agps (Alkylglycerone phosphate synthase) | DRSC05984 | 0.25 | -3.94 | -1.18
Agps (Alkylglycerone phosphate synthase) | DRSC26742 | 0.864 | 0.0393 | -2.52
Eip63E (Ecdysone-induced protein 63E) | DRSC08658 | 0.254 | 0.198 | 0.422
Eip63E (Ecdysone-induced protein 63E) | DRSC40718 | 0.225 | 0.258 | 1.06
Naa15-16 (N(alpha)-acetyltransferase 15/16) | DRSC19440 | 0.619 | 1.09 | 0.899
Naa15-16 (N(alpha)-acetyltransferase 15/16) | DRSC22846 | -4.37 | -0.44 | -0.0212
CR10032 (pseudo) | DRSC12499 | 0.773 | 0.214 | -0.486
CR10032 (pseudo) | DRSC28183 | 0.606 | 0.749 | 0.557
CG7049 | DRSC08587 | -0.638 | -0.719 | -1.51
CG7049 | DRSC26356 | -0.532 | -0.0802 | 0.305
CG31908 | DRSC23243 | -1.29 | 0.0347 | 0.933
Rint1 (RAD50 interactor 1) | DRSC11010 | 0.499 | 0.954 | 0.0983
Rint1 (RAD50 interactor 1) | DRSC27960 | -0.999 | -0.00216 | 0.388
Taf7 (TBP-associated factor 7) | DRSC15445 | -0.578 | -0.172 | 0.782
Taf7 (TBP-associated factor 7) | DRSC26720 | -0.502 | 1.43 | -0.11
CG6700 | DRSC02980 | 0.0598 | -0.171 | -0.107
CG6700 | DRSC25626 | 1.69 | 1.16 | 0.638
scrt (scratch) | DRSC23001 | 0.189 | 0.872 | -0.845
scrt (scratch) | DRSC25792 | -2.19 | -0.528 | 0.0923
Tsp42Ek (Tetraspanin 42Ek) | DRSC06187 | 0.726 | 0.781 | -7.35
Pyroxd1 (Pyridine nucleotide-disulfide oxidoreductase domain 1) | DRSC02098 | 0.573 | -5.69 | 0.461
Chrac-16 (Chromatin accessibility complex 16kD protein) | DRSC20343 | 1.23 | 1.11 | 1.9
Chrac-16 (Chromatin accessibility complex 16kD protein) | DRSC23575 | -3.19 (active) | -7.6 | -2.12
CG15071 | DRSC06504 | 0.314 | -0.204 | 0.176
CG15071 | DRSC28329 | 0.693 | -0.476 | -1.03
fry (furry) | DRSC08993 | 0.911 | 1.55 | 0.615
fry (furry) | DRSC10172 | 0.0699 | -0.331 | 0.224
fry (furry) | DRSC10709 | -3.36 | 0.32 | 0.662
fry (furry) | DRSC10712 | -5.75 | 0.417 | 0.927

The list goes on, starting with the last 3 of the part before.
predicted target | amplicon | Wolbachia per cell robust z, rep 1 | Wolbachia per cell robust z, rep 2 | Wolbachia per cell robust z, rep 3
fry (furry) | DRSC10172 | 0.0699 | -0.331 | 0.224
fry (furry) | DRSC10709 | -3.36 | 0.32 | 0.662
fry (furry) | DRSC10712 | -5.75 | 0.417 | 0.927
emc (extra macrochaetae) | DRSC23238 | 0.462 | 1.27 | 1.32
emc (extra macrochaetae) | DRSC28439 | -0.0799 | -0.45 | 0.444
CG5770 | DRSC06954 | -0.183 | -1.15 | -0.709
CG5770 | DRSC24281 | 0.636 | -0.148 | -2.11
stac (staccato) | DRSC13693 | -0.585 | 0.5 | -0.077
stac (staccato) | DRSC14392 | 0.0663 | 0.384 | -1.13
stac (staccato) | DRSC22197 | 0.729 | -0.0908 | 0.235
stac (staccato) | DRSC37864 | 0.271 | 1.62 | 0.991
Pi3K21B | DRSC00771 | -0.1 | 0.524 | 0.0654
CG14778 | DRSC17953 | 0.587 | 0.349 | 0.132
CG4565 + CG6567 | DRSC15599 | 0.431 | 0.523 | 0.0024
chm (chameau) | DRSC03341 | 0.839 | 0.253 | 0.54
chm (chameau) | DRSC24941 | -1.25 | -0.279 | -1.26
CG13331 | DRSC06366 | -2.11 | -0.605 | 0.194
CG11342 | DRSC08175 | -1.42 | -4.4 | 0.429
CG11342 | DRSC26281 | -0.789 | 0.276 | 1.57
CG7544 | DRSC07023 | -0.536 | -0.191 | -0.436
CG32425 | DRSC11764 | 0.139 | -0.216 | 0.55
Ythdc1 (YTH domain containing 1) | DRSC08141 | -1.36 | -0.695 | -1.43
CG42505 + CG31358 + CG42504 | DRSC15308 | -0.232 | -1.86 | -1.45
nebu (nebulosa) | DRSC09807 | -8.11 | 0.154 | 0.211
nebu (nebulosa) | DRSC09808 | 0.821 | -0.61 | 0.398
Rpn1 (Regulatory particle non-ATPase 1) | DRSC11274 | 1.15 | 1.6 | 1.08
Ir7a (Ionotropic receptor 7a) | DRSC17866 | -0.00287 | 0.427 | 0.403
CG11458 | DRSC23399 | 0.628 | 0.511 | 0.672
inaF-C | DRSC38797 | 1.76 | 0.456 | 0.248
CG31128 | DRSC13675 | 0.206 | 1.24 | 1.22
GlnRS (Glutaminyl-tRNA synthetase) | DRSC14140 | 1.23 | 0.274 | 0.295
CG17839 | DRSC10290 | 1.54 | -0.497 | -0.5
CG17839 | DRSC10291 | -0.148 | -0.981 | -0.653
